A mixed list of measured activities; the numbers were collected in NIAID ChemDB.

Shared fields: tests on isolated targets

Blank or dashed fields: not listed here. ICn is the concentration giving n% inhibition. Inhibition is in % at the dose shown (toxicity tests: loss of growth or viability). Lines come from different laboratories, so protocols vary.

{"compound": "CC(=NCCN=C(C)c1ccccc1O)c1ccccc1O", "agent": "Human cytomegalovirus", "protein": "Proteinase", "endpoint": "IC50", "value": ">367 µM"}
{"compound": "O=C(c1cc2ccccc2cc1O)N1CCN(c2ccc(F)cc2)CC1", "agent": "Human cytomegalovirus", "protein": "HCMV DNA polymerase", "endpoint": "IC50", "value": ">100 µM"}
{"compound": "Cc1cccc2nc(N(C)Cc3ccccc3)oc(=O)c12", "agent": "Human cytomegalovirus", "protein": "Protease", "endpoint": "IC50", "value": "10 µM"}
{"compound": "Nc1ccn(C[C@@H](CO)OCP(=O)(O)OP(=O)(O)OP(=O)(O)O)c(=O)n1", "agent": "Human cytomegalovirus", "protein": "DNA polymerase", "endpoint": "IC50", "value": "<100 µM"}
{"compound": "O=C1C[C@H](Cc2cccs2)N1C(=O)NCc1ccc(C(F)(F)F)cc1", "agent": "Human cytomegalovirus", "protein": "Protease", "endpoint": "IC50", "value": "4.5 µM"}
{"compound": "Cn1cc(C(=O)NCc2ccc(Cl)cc2)c(=O)c2cc(CN3CCOCC3)ccc21", "agent": "Human cytomegalovirus", "protein": "Polymerase", "endpoint": "IC50", "value": "0.37 µM"}
{"compound": "O=C1C[C@H](Cc2nc3ccccc3[nH]2)N1C(=O)NCc1ccc(C(F)(F)F)cc1", "agent": "Human cytomegalovirus", "protein": "Protease", "endpoint": "IC50", "value": ">50 µM"}
{"compound": "O=C(Nc1ccc(Br)cc1)c1ccc2ccccc2c1O", "agent": "Human cytomegalovirus", "protein": "HCMV DNA polymerase", "endpoint": "IC50", "value": "23 µM"}
{"compound": "CCSCCNc1nnc(NC(=O)c2ccc(Br)cc2)s1", "agent": "Human cytomegalovirus", "protein": "Polymerase", "endpoint": "IC50", "value": ">25 µM"}
{"compound": "N/C(=N\\OC(=O)c1ccccc1Cl)c1ccc(Cl)cc1Cl", "agent": "Human cytomegalovirus", "protein": "Polymerase", "read by": "scintillation proximity / radiometric", "endpoint": "IC50", "value": "10 µM"}
{"compound": "O=C(NCc1ccc(Cl)cc1)c1c[nH]c2ccc(C#CCO)cc2c1=O", "agent": "Human cytomegalovirus", "protein": "Herpesvirus DNA polymerase", "endpoint": "Ki", "value": "0.95 µM"}
{"compound": "O=C(NCc1ccc(Cl)cc1)c1cn2c3c(cc(CN4CCOCC4)cc3c1=O)OC(c1cccnc1)C2", "agent": "Human cytomegalovirus", "strain or isolate": "AD169", "protein": "DNA polymerase", "read by": "scintillation proximity / radiometric", "endpoint": "IC50", "value": "0.3 µM"}
{"compound": "Cc1c(NC(=O)OC(C)(C)C)ccc2nc(NC3(C(=O)O)CC3)oc(=O)c12", "agent": "Human cytomegalovirus", "protein": "Protease", "endpoint": "IC50", "value": "9.4 µM"}
{"compound": "Cc1nc(NCC2CCCCC2)nc(-n2ccnc2C)c1[N+](=O)[O-]", "agent": "Human cytomegalovirus", "protein": "UL70 primase", "endpoint": "IC50", "value": "0.15 µM"}
{"compound": "Cc1ccc(/C(N)=N\\OC(=O)c2cccc3ccccc23)cc1Cl", "agent": "Human cytomegalovirus", "protein": "Polymerase", "read by": "scintillation proximity / radiometric", "endpoint": "IC50", "value": ">100 µM"}
{"compound": "O=C1C[C@H](Cc2ccco2)N1C(=O)NCc1ccc([N+](=O)[O-])cc1", "agent": "Human cytomegalovirus", "protein": "Protease", "endpoint": "IC50", "value": "3.1 µM"}
{"compound": "O=c1[nH]c(=O)n([C@H]2C[C@H](O)[C@@H](COP(=O)(O)OP(=O)(O)OP(=O)(O)O)O2)cc1/C=C/Br", "agent": "Human herpesvirus 6", "strain or isolate": "Z29 (TYPE 6B)", "protein": "DNA polymerase", "endpoint": "IC50", "value": "2.88 µM"}
{"compound": "Cc1cc(Cl)ccc1/C(N)=N\\OC(=O)c1cccc2ccccc12", "agent": "Human cytomegalovirus", "protein": "Polymerase", "read by": "scintillation proximity / radiometric", "endpoint": "IC50", "value": "3.9 µM"}
{"compound": "COC(=O)[C@H](Cc1ccc(OC)cc1)Nc1nc2cccc(C)c2c(=O)o1", "agent": "Human cytomegalovirus", "protein": "Protease", "endpoint": "IC50", "value": "0.21 µM"}
{"compound": "O=C(NCc1ccc(Cl)cc1)c1cn2c3c(cc(CN4CCOCC4)cc3c1=S)OCC2", "agent": "Human cytomegalovirus", "protein": "DNA polymerase", "read by": "scintillation proximity / radiometric", "endpoint": "IC50", "value": "0.06 µM"}
{"compound": "Cc1ccc2nc(N[C@@H](C)c3ccccc3)oc(=O)c2c1", "agent": "Human cytomegalovirus", "protein": "Protease", "endpoint": "IC50", "value": "4.9 µM"}
{"compound": "O=C(Nc1ccc([N+](=O)[O-])cc1)c1cc(O)c2ccccc2c1O", "agent": "Human cytomegalovirus", "protein": "HCMV DNA polymerase", "endpoint": "IC50", "value": "7.35 µM"}
{"compound": "O=C(CCCCCl)Nc1nnc(NCCSc2ccccc2)s1", "agent": "Human cytomegalovirus", "protein": "Polymerase", "endpoint": "IC50", "value": ">25 µM"}
{"compound": "Cc1nc2[nH]cc(C(=O)NCc3ccc(Cl)cc3)c(=O)c2cc1Br", "agent": "Human cytomegalovirus", "protein": "Polymerase", "endpoint": "inhibition", "tested at": "20 µM", "value": "39%"}
{"compound": "O=C(NCc1ccc(Cl)cc1)c1cn2c3c(cc(CN4CCOCC4)cc3c1=O)OC(c1cccnc1)C2", "agent": "Human cytomegalovirus", "protein": "HCMV polymerase", "read by": "scintillation proximity / radiometric", "endpoint": "IC50", "value": "0.32 µM"}
{"compound": "Cn1nnc(C[C@H]2CC(=O)N2C(=O)NCc2ccc(C(F)(F)F)cc2)n1", "agent": "Human cytomegalovirus", "protein": "Protease", "endpoint": "IC50", "value": "5.7 µM"}
{"compound": "O=C(Nc1ccc([N+](=O)[O-])cc1)c1cc2cccc(O)c2cc1O", "agent": "Human cytomegalovirus", "protein": "HCMV DNA polymerase", "endpoint": "IC50", "value": ">100 µM"}
{"compound": "Nc1nc2c(ncn2CC[C@H](O)COP(=O)(O)OP(=O)(O)OP(=O)(O)O)c(=O)[nH]1", "agent": "Human cytomegalovirus", "strain or isolate": "AD169", "protein": "DNA polymerase", "endpoint": "IC50", "value": ">150 µM"}
{"compound": "COC(=O)CC1=C(Cl)C(=O)c2ccccc2C1=O", "agent": "Human cytomegalovirus", "protein": "Protease", "read by": "scintillation proximity", "endpoint": "IC50", "value": ">150 µM"}
{"compound": "Nc1nc(Cl)cc(Nc2cc(Cl)cc(Cl)c2)n1", "agent": "Human cytomegalovirus", "strain or isolate": "AD169", "protein": "DNA polymerase", "endpoint": "IC50", "value": "150 µM"}
{"compound": "O=C(Nc1cccc(Cl)c1)c1cc2ccccc2cc1O", "agent": "Human cytomegalovirus", "protein": "HCMV DNA polymerase", "endpoint": "IC50", "value": ">100 µM"}
{"compound": "Nc1nc2c(ncn2CC[C@@H](O)COP(=O)(O)OP(=O)(O)OP(=O)(O)O)c(=O)[nH]1", "agent": "Human cytomegalovirus", "strain or isolate": "AD169", "protein": "DNA polymerase", "endpoint": "IC50", "value": "45 µM"}
{"compound": "CC[C@H](C)[C@H](Nc1nc2cccc(C)c2c(=O)o1)C(=O)OC", "agent": "Human cytomegalovirus", "protein": "Protease", "endpoint": "IC50", "value": "1.2 µM"}
{"compound": "O=C(O)CP(=O)(O)O", "agent": "Human herpesvirus 6", "strain or isolate": "TYPE 6", "protein": "DNA polymerase", "endpoint": "inhibition", "tested at": "2 µg/mL", "value": "31.7%"}
{"compound": "Cc1cccc2nc(N(C(=O)OCc3ccccc3)[C@@H](CCCCN)C(=O)OC(C)(C)C)oc(=O)c12", "agent": "Human cytomegalovirus", "protein": "Protease", "endpoint": "IC50", "value": "1.5 µM"}
{"compound": "O=C(Nc1ccc(Cl)cc1)c1ccc2ccccc2c1", "agent": "Human cytomegalovirus", "protein": "HCMV DNA polymerase", "endpoint": "IC50", "value": ">100 µM"}
{"compound": "Cn1cc(C(=O)NCc2ccc(Cl)cc2)c(=O)c2cc(/C=C\\CO)cc(F)c21", "agent": "Human cytomegalovirus", "strain or isolate": "AD169", "protein": "DNA polymerase", "endpoint": "IC50", "value": "0.78 µM"}
{"compound": "CCCCCCCC/C=C/CCCCCCCC(=O)Nc1nnc(NCc2ccc(Cl)c(Cl)c2)s1", "agent": "Human cytomegalovirus", "protein": "Polymerase", "endpoint": "IC50", "value": ">25 µM"}
{"compound": "O=C(Nc1ccc(Cl)cc1)c1cc(O)c2ccccc2c1O", "agent": "Human cytomegalovirus", "protein": "HCMV DNA polymerase", "endpoint": "IC50", "value": "14.4 µM"}
{"compound": "Cc1ccc(C(=O)Nc2nnc(NCCCNC3CCCCC3)s2)cc1", "agent": "Human cytomegalovirus", "protein": "Polymerase", "endpoint": "IC50", "value": "<25 µM"}
{"compound": "O=C1C[C@H](Cc2nc3ccccc3s2)N1C(=O)NCc1ccc([N+](=O)[O-])cc1", "agent": "Human cytomegalovirus", "protein": "Protease", "endpoint": "IC50", "value": "0.7 µM"}
{"compound": "CC(=O)C(C(=O)OCc1ccccc1)C1=C(Cl)C(=O)c2ccccc2C1=O", "agent": "Human cytomegalovirus", "protein": "Protease", "read by": "HPLC", "endpoint": "IC50", "value": "4.8 µM"}
{"compound": "COC(=O)C1(Nc2nc3ccc(NC(=O)CN(C)C)c(C)c3c(=O)o2)CC1", "agent": "Human cytomegalovirus", "protein": "Protease", "endpoint": "IC50", "value": "1.4 µM"}
{"compound": "COc1ccccc1C(=O)Nc1nnc(NCc2ccc(F)cc2)s1", "agent": "Human cytomegalovirus", "protein": "Polymerase", "endpoint": "IC50", "value": ">25 µM"}
{"compound": "Nc1nc2c(ncn2COCCOP(=O)(O)OP(=O)(O)OP(=O)(O)O)c(=O)[nH]1", "agent": "Human cytomegalovirus", "strain or isolate": "AD169", "protein": "DNA polymerase", "endpoint": "Ki", "value": "0.0076 µM"}

Repeating the final 4 entries:

compound	agent	strain or isolate	protein	read by	endpoint	tested at	value
CC(=O)C(C(=O)OCc1ccccc1)C1=C(Cl)C(=O)c2ccccc2C1=O	Human cytomegalovirus	-	Protease	HPLC	IC50	-	4.8 µM
COC(=O)C1(Nc2nc3ccc(NC(=O)CN(C)C)c(C)c3c(=O)o2)CC1	Human cytomegalovirus	-	Protease	-	IC50	-	1.4 µM
COc1ccccc1C(=O)Nc1nnc(NCc2ccc(F)cc2)s1	Human cytomegalovirus	-	Polymerase	-	IC50	-	>25 µM
Nc1nc2c(ncn2COCCOP(=O)(O)OP(=O)(O)OP(=O)(O)O)c(=O)[nH]1	Human cytomegalovirus	AD169	DNA polymerase	-	Ki	-	0.0076 µM